Pooled drug test results. Numbers come from NIAID ChemDB, via PubChem.

Shared fields: whole-cell or culture tests; species: Mycobacterium smegmatis

MIC50, MIC90 and the like: level of inhibition, or share of isolates inhibited. ECn is the concentration giving n% inhibition of infection, replication or growth. Conditions beyond the fields shown may differ between rows. a–b is a range or a potency band. An empty or dashed field is not shown.

compound	endpoint	read by	strain	changes	result
COc1c(N2CCN(C)C(c3ccccc3)C2)c(F)c([N+](=O)[O-])c2c(=O)c(C(=O)O)cn(C3CC3)c12	MIC	agar	ATCC 14468		6.3 µM
Cc1ccc(S(=O)(=O)Nc2cccc(C(=O)NC3NC(c4ccc(F)cc4)=CS3)c2)cc1	MIC80	turbidity			>100 µM
CCSCCCCCCCCCCCCC#CC(=O)O	MIC99		mc2155		50.3 µM
Cc1cn(C/C=C\Cn2c(=O)n3c4c(cccc42)CC(N)C3)c(=O)[nH]c1=O	EC50	resazurin / absorbance	mc2155		>160 µg/mL
Cc1ccnc(NS(=O)(=O)c2ccc(NC(=O)c3cc(-c4ccc(Br)cc4)nc4ccccc34)cc2)n1	MIC80	turbidity			>100 µM
CCCCCCCC/C=N/NC(=O)c1cnc2cc(F)ccc2c1NC(CSc1ccccc1)CC(=O)N(C)C	MIC	resazurin	ATCC 19420		10 µg/mL
CCCCCCCCC#CCCCCCCC#CC(=O)O	MIC99		mc2155		68.9 µM
O=C(c1ccco1)N1CCN(Cc2cccc(Oc3ccccc3)c2)CC1	EC50				4.79 µM
CN1CCN(Cc2ccc(NC(=O)c3ccc(Cl)cc3)cc2)CC1	MIC		103599		>16 µg/mL
CO/N=C(/CN1CCN(c2cc3c(cc2F)c(=O)c(C(=O)O)cn3C2CC2)CC1)c1cc2ccc(OC)cc2oc1=O	MIC		CMCC 93202		12.5 µg/mL
c1ccc(Oc2cccc(CN3CCN(c4ccccn4)CC3)c2)cc1	EC50				<100 µM
CCNc1cc(C)nc(Nc2ccc3nc(-c4ccc(Cl)cc4)[nH]c3c2)n1	EC50	fluorescence		I66M	0.064 µM
Cc1ccc(-c2cc(C(=O)Nc3ccc(S(=O)(=O)Nc4cc(C)on4)cc3)c3ccccc3n2)c(C)c1	MIC80	turbidity			40–80 µM
O=C(Nc1cccc(Cn2ccnc2)c1)c1ccc(Cl)cc1	MIC		103599		>16 µg/mL
COc1ccc2ccc(=O)n(CCN3C[C@@H]4CN(c5ccc6c(n5)NC(=O)CO6)C(=O)O[C@H]4C3)c2n1	MIC	broth dilution	ATCC 19420		≤1 µg/mL
C[C@@H]1CN(c2c(F)c(N)c3c(=O)c(C(=O)O)cn(C4CC4)c3c2F)C[C@H](C)N1	MBC		ATCC 607		0.1 µg/mL
C#CCCCCCCCCCCCCC#CC(=O)O	MIC99		mc22389		47.7 µM
CN1CCN(Cc2cccc(NC(=O)c3ccc(-c4ccccc4)cc3)c2)CC1	MIC		103599		8 µg/mL
COc1ccc(/C=N/NC(=O)c2cnc3cc(F)ccc3c2NC(CSc2ccccc2)CC(=O)N(C)C)cc1	MIC	resazurin	ATCC 19420		>100 µg/mL
CO/N=C(/CN1CCN(c2cc3c(cc2F)c(=O)c(C(=O)O)cn3C2CC2)CC1)c1cc2ccccc2oc1=O	MIC		CMCC 93202		12.5 µg/mL
CCCCCCCCCCCOc1cc(-c2ccccc2F)nc2ccccc12	MIC		ATCC 607		500 µg/mL
CN1CCN(Cc2ccc(NC(=O)c3ccc(-c4ccccc4)cc3)cc2)CC1	MIC		103599		8 µg/mL
O=C1Cc2c([nH]c3ccc([N+](=O)[O-])cc23)-c2ccccc2N1	EC50	PCR			108.7 µM
COc1c(N2CCn3cc(C(=O)O)nc3C2)c(F)c([N+](=O)[O-])c2c(=O)c(C(=O)O)cn(C3CC3)c12	MIC	agar	ATCC 14468		6.42 µM
NNC(=O)c1ccncc1	MIC		mc2651		50 µg/mL
COc1ccc(/C=N/NC(=O)c2cnc3cccc(C(F)(F)F)c3c2NC(CSc2ccccc2)CC(=O)N(C)C)cc1	MIC	resazurin	ATCC 19420		>100 µg/mL
CNC(C)C1CC[C@@H](N)[C@@H](O[C@H]2[C@H](O)[C@@H](OC3OC[C@](C)(O)[C@H](NC)[C@H]3O)[C@H](N)C[C@@H]2N)O1	MIC	resazurin			4 µM
COc1cc(C(=O)NS(=O)(=O)c2ccccc2C)ccc1Cc1cn(C)c2ccc(NC(=O)OC3CCCC3)cc12	MIC	MTT			6 µM
O=C(Nc1ccc(S(=O)(=O)Nc2nccs2)cc1)c1cc(-c2ccccc2)nc2ccccc12	MIC80	turbidity			40–80 µM
CCCCCCCCCCCCCCCOc1cc(-c2ccc(F)cc2)nc2ccccc12	MIC		ATCC 607		250 µg/mL
O=C(Nc1cccc(CN2CCOCC2)c1)c1ccc(-c2ccccc2)cc1	MIC		103599		>16 µg/mL
O=c1[nH]c(=O)n(C/C=C\CN2c3cccc4c3N(CCC4)S2(=O)=O)cc1Br	EC50	resazurin / absorbance	mc2155		>160 µg/mL
COc1ccc2c3conc3c(=O)n(CCN3C[C@@H]4CN(c5ccc6c(n5)NC(=O)CO6)C(=O)O[C@H]4C3)c2n1	MIC	broth dilution	ATCC 19420		≤1 µg/mL
COc1c(N2CCNC(C)C2)c(F)cc2c(=O)c(C(=O)O)cn(C3CC3)c12	MIC	agar	ATCC 14468		2.08 µM
O=C(/C=C/c1ccccc1)Nc1ccccc1CN1CCOCC1	MIC		103599		>16 µg/mL
CCCCCCCCCCCCCC#CC(=O)OCC(O)CO	MIC99		mc2651		6.1 µM
CN1CCN(Cc2ccc(NC(=O)/C=C/c3ccccc3)cc2)CC1	MIC		103599		>16 µg/mL
CC1COc2c(N3CCN(C)CC3)c(F)cc3c(=O)c(C(=O)O)cn1c23	MIC		mc2155		0.5 µg/mL
CCO/N=C(/CN1CCN(c2c(F)cc3c(=O)c(C(=O)O)cn(C4CC4)c3c2OC)CC1)c1cc2ccc(OC)cc2oc1=O	MIC		CMCC 93202		6.25 µg/mL
CCCCCCCCOc1cc(-c2ccccc2F)nc2ccccc12	MIC		ATCC 607		500 µg/mL
O=C(Nc1ccc(S(=O)(=O)Nc2nccs2)cc1)Sc1ccc(Br)c2cccc(Cl)c12	MIC80	turbidity			>100 µM
CCO/N=C(/CN1CCN(c2c(F)cc3c(=O)c(C(=O)O)cn(C4CC4)c3c2OC)CC1C)c1cc2ccccc2oc1=O	MIC		CMCC 93202		>12.5 µg/mL
COc1c(N2CCN(Cc3ccc4c(c3)OCO4)CC2)c(F)cc2c(=O)c(C(=O)O)cn(C3CC3)c12	MIC	agar	ATCC 14468		3.15 µM
CCCCCCCCCCCCCCOc1cc(-c2ccc(F)cc2)nc2ccccc12	MIC		ATCC 607		250 µg/mL
O=C(Nc1ccccc1CN1CCOCC1)c1ccc(-c2ccccc2)cc1	MIC		103599		>16 µg/mL
c1ccc(Oc2cccc(CN3CCN(Cc4ccc5c(c4)OCO5)CC3)c2)cc1	EC50				78.1 µM
CCCCCCCCCCCCCCCC#CC(=O)Oc1cnccc1C(=O)OCCC	MIC99		mc2155		92.8 µM
CCCC[P+](c1ccccc1)(c1ccccc1)c1ccccc1	MIC	broth dilution	mc2155		>128 µg/mL
NNC(=O)c1ccncc1	MIC	resazurin			15.6 µg/mL
O=C(O)CC1Sc2nnc(Cc3ccc(Br)cc3)n2N=C1c1ccc(Cl)cc1	MIC	resazurin			20 µM
CCOC(=O)NC(=O)c1ccsc1NC(=O)c1nc2ccccc2s1	MIC99	turbidity			4.5 µg/mL
COc1ccc2cc(C(=O)CN3CCN(c4c(F)cc5c(=O)c(C(=O)O)cn(C6CC6)c5c4OC)CC3)c(=O)oc2c1	MIC		CMCC 93202		6.25 µg/mL
COc1ccc(NC(=O)c2cc(Cl)ccc2OC(=O)[C@@H](NC(=O)OCc2ccccc2)C(C)C)cc1	MIC100	broth dilution	ATCC 700084		251 µM
COc1ccc(C2=CSC(NC(=O)c3cccc(NS(=O)(=O)c4ccc(C)cc4)c3)N2)cc1	MIC80	turbidity			>100 µM
CCCCCCCCCCCCCCCC#CC(=O)OCC(O)CO	MIC99		mc2155		3 µM
COc1c(N2CCN(CC(=O)c3cc4ccc(O)cc4oc3=O)CC2)c(F)cc2c(=O)c(C(=O)O)cn(C3CC3)c12	MIC		CMCC 93202		6.25 µg/mL
CCCCCCCCCCCOc1cc(-c2ccc(F)cc2)nc2ccccc12	MIC		ATCC 607		250 µg/mL
CC(C)[C@H](NC(=O)OCc1ccccc1)C(=O)Oc1ccc(Cl)cc1C(=O)Nc1ccc([N+](=O)[O-])cc1	MIC100	broth dilution	ATCC 700084		30.42 µM
CCCCCCSCCCCCCCCCCCCC#CC(=O)O	MIC99		mc2155		70.5 µM
CN(C)C(=O)CC(CSc1ccccc1)Nc1c(C(=O)N/N=C/c2ccc(F)cc2)cnc2cccc(C(F)(F)F)c12	MIC	resazurin	ATCC 19420		>100 µg/mL
CCCCCCCCOc1cc(-c2ccc(F)cc2)nc2ccccc12	MIC		ATCC 607		250 µg/mL
CN1CCN(Cc2cccc(NC(=O)/C=C/c3ccccc3)c2)CC1	MIC		103599		>16 µg/mL
CCCCCOc1cc(-c2cccc(F)c2)nc2ccccc12	MIC		ATCC 607		125 µg/mL
Cc1cn(C/C=C\CN2c3cccc4c3N(CCC4)S2(=O)=O)c(=O)[nH]c1=O	EC50	resazurin / absorbance	mc2155		>160 µg/mL

For reference, 7 entries again:

compound | endpoint | read by | strain | changes | result
CCOC(=O)NC(=O)c1ccsc1NC(=O)c1nc2ccccc2s1 | MIC99 | turbidity |  |  | 4.5 µg/mL
CC(C)[C@H](NC(=O)OCc1ccccc1)C(=O)Oc1ccc(Cl)cc1C(=O)Nc1ccc([N+](=O)[O-])cc1 | MIC100 | broth dilution | ATCC 700084 |  | 30.42 µM
CN1CCN(Cc2ccc(NC(=O)c3ccc(Cl)cc3)cc2)CC1 | MIC |  | 103599 |  | >16 µg/mL
CCCCCCCC/C=N/NC(=O)c1cnc2cc(F)ccc2c1NC(CSc1ccccc1)CC(=O)N(C)C | MIC | resazurin | ATCC 19420 |  | 10 µg/mL
COc1ccc(/C=N/NC(=O)c2cnc3cc(F)ccc3c2NC(CSc2ccccc2)CC(=O)N(C)C)cc1 | MIC | resazurin | ATCC 19420 |  | >100 µg/mL
CCCCCCCCCCCOc1cc(-c2ccc(F)cc2)nc2ccccc12 | MIC |  | ATCC 607 |  | 250 µg/mL
CO/N=C(/CN1CCN(c2cc3c(cc2F)c(=O)c(C(=O)O)cn3C2CC2)CC1)c1cc2ccccc2oc1=O | MIC |  | CMCC 93202 |  | 12.5 µg/mL